Compound potency records, mixed from different reports. Data source: NIAID ChemDB in PubChem.

Shared fields: growth or infection tests; organism: Herpes simplex virus 1; read by: cytopathic effect; endpoint: EC50

Blank or dashed fields: not listed here. ECn: concentration that inhibits the pathogen or its effect by n%. Neighbouring rows are from separate reports.

compound,strain or isolate,cells,result
Nc1ncnc2c1ncn2C[C@@H](CO)OCP(=O)(O)O,ACV-resistant,HEL,0.11 µg/mL
Nc1ncnc2c1ncn2C[C@@H](CO)OCP(=O)(O)O,KOS ACV-resistant,HEL,0.11 µg/mL
Cc1ccc(C(=O)Nc2ccc(S(=O)(=O)O)c3cc(S(=O)(=O)O)cc(S(=O)(=O)O)c23)cc1NC(=O)c1cccc(NC(=O)Nc2cccc(C(=O)Nc3cc(C(=O)Nc4ccc(S(=O)(=O)O)c5cc(S(=O)(=O)O)cc(S(=O)(=O)O)c45)ccc3C)c2)c1,KOS,HeLa,17 µM
CCOC(=O)P(=O)(OCCOCn1cnc2c(=O)[nH]c(N)nc21)OC(C)C,L2/R,VERO,149 µM
CO[C@@H]1[C@@H](O[C@@H]2O[C@H](C)[C@@H](O[C@H]3C[C@@](C)(O)[C@@H](O)[C@H](C)O3)[C@H](N(C)C)[C@H]2O)[C@@H](CC=O)C[C@@H](C)[C@@H](O)/C=C/C=C/C[C@@H](C)OC(=O)C[C@H]1O,KOS,HeLa,>200 µg/mL
O=C(O)P(=O)(O)O,KOS,U138-MG,11.2 µg/mL
C=C1C(=O)CCC1C(=O)O,KOS,HeLa,>200 µg/mL
Nc1ncnc2c1ncn2[C@@H]1O[C@H](CO)C[C@@H]1O,C137-101 (TK-),-,20 µg/mL
Nc1nc2c(ncn2CCC(CO)CO)c(=O)[nH]1,KOS BVDU-resistant,HEL,4.7 µg/mL
Nc1nc(N)c2ncn(CCOCP(=O)(O)O)c2n1,KOS,HEL,2 µg/mL
O=C(O)CP(=O)(O)O,KOS HPMPA-resistant,HEL,11.9 µg/mL
O=C[C@@H](O)[C@H](O)[C@H](O)[C@H](O)CO,KOS,HeLa,>200 µg/mL
Cc1cn([C@@H]2O[C@H](CO)[C@@H](O)[C@@H]2O)c(=O)[nH]c1=O,KOS GCV-resistant,HEL,20 µg/mL
CO[C@H]1[C@@H](O)[C@@H](C)O[C@H](O[C@H]2[C@H](Oc3cccc4c(O)c5c(=O)oc6ccc(C)c7c(=O)oc(c34)c5c67)O[C@H](C)[C@H](O)[C@@H]2O)[C@@H]1O,KOS,HeLa,>200 µg/mL
Nc1nc(=O)n([C@@H]2O[C@H](CO)[C@@H](O)[C@@H]2F)cc1I,KOS PMEDAP-resistant,HEL,0.004 µg/mL
O=C(O)CP(=O)(O)O,KOS,HEL,16 µg/mL
Nc1nc2c(ncn2COC(CO)CO)c(=O)[nH]1,KOS HPMPA-resistant,HEL,0.005 µg/mL
Nc1ccn(C[C@@H](CO)OCP(=O)(O)O)c(=O)n1,KOS,HEL,0.4 µg/mL

The last 2 rows once more:

compound	strain or isolate	cells	result
Nc1nc2c(ncn2COC(CO)CO)c(=O)[nH]1	KOS HPMPA-resistant	HEL	0.005 µg/mL
Nc1ccn(C[C@@H](CO)OCP(=O)(O)O)c(=O)n1	KOS	HEL	0.4 µg/mL